Results as given in article PMC11964921 (npj Drug Discovery, 2025).

Test system: M. tuberculosis H37Rv-ΔcydAB
Assay type: cell-based

## CCc1nc2ccc(Cl)cn2c1C(=O)NCc1ccc(N2CCC(c3ccc(OC(F)(F)F)cc3)CC2)cc1 [Q203]
  fold more sensitive than M. smegmatis cytochrome bd knockout strain: 1000 fold
